A mixed list of measured activities; the numbers were collected in NIAID ChemDB.

Shared fields: tests in culture; species: Mycobacterium avium intracellulare; read-out: MIC

Neighbouring rows are from separate reports.

SMILES	strain	result
CC[C@H]1OC(=O)[C@H](C)[C@@H](O[C@H]2C[C@@](C)(OC)[C@@H](O)[C@H](C)O2)[C@H](C)[C@@H](O[C@@H]2O[C@H](C)C[C@H](N(C)C)[C@H]2O)[C@](C)(OC)C[C@@H](C)C(=O)[C@H](C)[C@@H](O)[C@]1(C)O	N-481 (HIV-)	4 µg/mL
CC[C@H]1OC(=O)[C@H](C)[C@@H](O[C@H]2C[C@@](C)(OC)[C@@H](OC(C)=O)[C@H](C)O2)[C@H](C)[C@@H](OC2O[C@H](C)C[C@H](N(C)C)[C@H]2OC(=O)NCC(=O)NC)C(C)(O)C[C@@H](C)/C(=N\OCCCC2CCCCC2)[C@H](C)[C@@H](O)[C@]1(C)O	20066	1.56 µg/mL
CC[C@H]1OC(=O)[C@H](C)[C@@H](O[C@H]2C[C@@](C)(OC)[C@@H](OC(C)=O)[C@H](C)O2)[C@H](C)[C@@H](O[C@@H]2O[C@H](C)C[C@H](N(C)C)[C@H]2OC(=O)NN(C)C)C(C)(O)C[C@@H](C)/C(=N\OCCCC2CCCCC2)[C@H](C)[C@@H](O)[C@]1(C)O	20066 (clarithromycin-susceptible)	1.56 µg/mL
CO[C@H]1/C=C/O[C@@]2(C)Oc3c(C)c(O)c4c(=O)c(c5oc6cc(N7CCN(CC(C)C)CC7)cc(=O)c6nc5c4c3=C2O)NC(=O)/C(C)=C\C=C\[C@H](C)[C@H](O)[C@@H](C)[C@@H](O)[C@@H](C)[C@H](OC(C)=O)[C@@H]1C	N-499 (HIV-)	0.004 µg/mL
CCCCCCCCNC(=O)O[C@H]1C(O[C@@H]2[C@@H](C)[C@H](O[C@H]3C[C@@](C)(OC)[C@@H](OC(C)=O)[C@H](C)O3)[C@@H](C)C(=O)O[C@H](CC)[C@@](C)(O)[C@H](O)[C@@H](C)/C(=N/OCCCC3CCCCC3)[C@H](C)CC2(C)O)O[C@H](C)C[C@@H]1N(C)C	20075	0.39 µg/mL
COc1c(N2CCNC(C)C2)c(F)cc2c(=O)c(C(=O)O)cn(C3CC3)c12	N-260	6.25 µg/mL
CC/C=C/CCNC(=O)O[C@H]1C(O[C@@H]2[C@@H](C)[C@H](O[C@H]3C[C@@](C)(OC)[C@@H](OC(C)=O)[C@H](C)O3)[C@@H](C)C(=O)O[C@H](CC)[C@@](C)(O)[C@H](O)[C@@H](C)/C(=N/OCCCC3CCCCC3)[C@H](C)CC2(C)O)O[C@H](C)C[C@@H]1N(C)C	20067	0.2 µg/mL
CCCCCCCCCCCCO/N=C1\[C@H](C)CC(C)(O)[C@H](O[C@@H]2O[C@H](C)C[C@H](N(C)C)[C@H]2O)[C@@H](C)[C@H](O[C@H]2C[C@@](C)(OC)[C@@H](OC(C)=O)[C@H](C)O2)[C@@H](C)C(=O)O[C@H](CC)[C@@](C)(O)[C@H](O)[C@H]1C	20066 (clarithromycin-susceptible)	6.25 µg/mL
CO[C@H]1/C=C/O[C@@]2(C)Oc3c(C)c(O)c4c(O)c(c5c(c4c3C2=O)NC2(CCN(CC(C)C)CC2)N=5)=NC(=O)/C(C)=C\C=C\[C@H](C)[C@H](O)[C@@H](C)[C@@H](O)[C@@H](C)[C@H](OC(C)=O)[C@@H]1C	N-919 (HIV-)	0.0313 µg/mL
CC[C@H]1OC(=O)[C@H](C)[C@@H](O[C@H]2C[C@@](C)(OC)[C@@H](OC(C)=O)[C@H](C)O2)[C@H](C)[C@@H](O[C@@H]2O[C@H](C)C[C@H](N(C)C)[C@H]2OC(=O)NN2CCCC2)C(C)(O)C[C@@H](C)/C(=N\OCCCC2CCCCC2)[C@H](C)[C@@H](O)[C@]1(C)O	20066 (clarithromycin-susceptible)	0.39 µg/mL
CCNC(=O)O[C@H]1C(O[C@@H]2[C@@H](C)[C@H](O[C@H]3C[C@@](C)(OC)[C@@H](OC(C)=O)[C@H](C)O3)[C@@H](C)C(=O)O[C@H](CC)[C@@](C)(O)[C@H](O)[C@@H](C)/C(=N/OCCCC3CCCCC3)[C@H](C)CC2(C)O)O[C@H](C)C[C@@H]1N(C)C	20075	12.5 µg/mL
CC[C@H]1OC(=O)[C@H](C)[C@@H](O[C@H]2C[C@@](C)(OC)[C@@H](OC(C)=O)[C@H](C)O2)[C@H](C)[C@@H](O[C@@H]2O[C@H](C)C[C@H](N(C)C)[C@H]2OC(=O)NNCc2ccccc2[N+](=O)[O-])C(C)(O)C[C@@H](C)/C(=N\OCCCC2CCCCC2)[C@H](C)[C@@H](O)[C@]1(C)O	20066 (clarithromycin-susceptible)	0.39 µg/mL
Cc1onc(-c2ccccc2Cl)c1C(=O)N[C@@H]1C(=O)N2[C@@H]1SC(C)(C)[C@@H]2C(=O)O	CIPT 140310001	75 µg/mL
CO[C@H]1/C=C/O[C@@]2(C)Oc3c(C)c(O)c4c(O)c(c(/C=N/N5CCN(C6CCCC6)CC5)c(O)c4c3C2=O)NC(=O)/C(C)=C\C=C\[C@H](C)[C@H](O)[C@@H](C)[C@@H](O)[C@@H](C)[C@H](OC(C)=O)[C@@H]1C	92	0.25 µg/mL
CC1(C)S[C@@H]2[C@H](NC(=O)[C@H](C(=O)[O-])c3ccsc3)C(=O)N2[C@H]1C(=O)[O-].[Na+].[Na+]	CIPT 140310019	>50 µg/mL
CCCCCCCCCCCCCCNNC(=O)O[C@H]1[C@H](O[C@@H]2[C@@H](C)[C@H](O[C@H]3C[C@@](C)(OC)[C@@H](OC(C)=O)[C@H](C)O3)[C@@H](C)C(=O)O[C@H](CC)[C@@](C)(O)[C@H](O)[C@@H](C)/C(=N/OCCCC3CCCCC3)[C@H](C)CC2(C)O)O[C@H](C)C[C@@H]1N(C)C	20066 (clarithromycin-susceptible)	>50 µg/mL
C[C@@H](O)[C@H]1C(=O)N2C(C(=O)O)=C(SCCN=CN)C[C@H]12	CIPT 140310031	2 µg/mL
Clc1ccc2c(c1)nc1cc(Nc3ccccc3)c(=NC3CCCCC3)cc-1n2-c1ccccc1	P39	2 µg/mL
CCCCCCCCCCO/N=C1\[C@H](C)CC(C)(O)[C@H](O[C@@H]2O[C@H](C)C[C@H](N(C)C)[C@H]2O)[C@@H](C)[C@H](OC2C[C@@](C)(OC)[C@@H](O)[C@H](C)O2)[C@@H](C)C(=O)O[C@H](CC)[C@@](C)(O)[C@H](O)[C@H]1C	20066 (clarithromycin-susceptible)	6.25 µg/mL
CCCCCNC(=O)O[C@H]1C(O[C@@H]2[C@@H](C)[C@H](O[C@H]3C[C@@](C)(OC)[C@@H](OC(C)=O)[C@H](C)O3)[C@@H](C)C(=O)O[C@H](CC)[C@@](C)(O)[C@H](O)[C@@H](C)/C(=N/OCCCC3CCCCC3)[C@H](C)CC2(C)O)O[C@H](C)C[C@@H]1N(C)C	20066	0.1 µg/mL
CO[C@H]1/C=C/O[C@@]2(C)Oc3c(C)c(O)c4c(O)c(c5c(c4c3C2=O)NC2(CCN(CC(C)C)CC2)N=5)=NC(=O)/C(C)=C\C=C\[C@H](C)[C@H](O)[C@@H](C)[C@@H](O)[C@@H](C)[C@H](OC(C)=O)[C@@H]1C	CIPT 140310019	0.05 µg/mL
CCCCC(=O)O[C@H]1[C@H](C)OC(O[C@H]2[C@H](C)[C@@H](O[C@@H]3O[C@H](C)C[C@H](N(C)C)[C@H]3O)C(C)(O)C[C@@H](C)/C(=N\OCCCOc3ccccc3)[C@H](C)[C@@H](O)[C@](C)(O)[C@@H](CC)OC(=O)[C@@H]2C)C[C@@]1(C)OC	20066 (clarithromycin-susceptible)	0.78 µg/mL

Again, the opening 2 rows:

{"SMILES": "CC[C@H]1OC(=O)[C@H](C)[C@@H](O[C@H]2C[C@@](C)(OC)[C@@H](O)[C@H](C)O2)[C@H](C)[C@@H](O[C@@H]2O[C@H](C)C[C@H](N(C)C)[C@H]2O)[C@](C)(OC)C[C@@H](C)C(=O)[C@H](C)[C@@H](O)[C@]1(C)O", "strain": "N-481 (HIV-)", "result": "4 µg/mL"}
{"SMILES": "CC[C@H]1OC(=O)[C@H](C)[C@@H](O[C@H]2C[C@@](C)(OC)[C@@H](OC(C)=O)[C@H](C)O2)[C@H](C)[C@@H](OC2O[C@H](C)C[C@H](N(C)C)[C@H]2OC(=O)NCC(=O)NC)C(C)(O)C[C@@H](C)/C(=N\\OCCCC2CCCCC2)[C@H](C)[C@@H](O)[C@]1(C)O", "strain": "20066", "result": "1.56 µg/mL"}